According to PMC10653801, “Functional diversification despite structural congruence in the HipBST toxin-antitoxin system of Legionella pneumophila” (mBio, 2022):

Target: HipTLp, purified recombinant, His6-SBP tag cleaved (Legionella pneumophila, UniProt Q5ZSZ6 1-312)
Assay: native gel or EMSA
Conditions: both partners purified

B1: HipBLp, purified recombinant, His6-SBP tag cleaved (natural protein)
chain: MPKHEIANLIHYYRKQSGLSQQELARLAGVGKTVIYDIEKGKESVRLNTLLKVLDVLNIQIKFETPFPQTTDNNS
B1: binds.

B2: HipSLp, purified recombinant, His6-SBP tag cleaved (natural protein)
chain: MRKAYVSVSGIKAGILEELQGGTYQFTYFEDYHGAPVSLTMPLKNKVYDFDVFPPFFEGLLPEGIMLEALLRKYKIDKNDYFGQLILVGQDVVGAVTIEEIR
B2: binds.
